Pooled drug test results. Numbers come from NIAID ChemDB, via PubChem.

Common to all: tests in culture; agent: Mycobacterium avium complex

ECn is the concentration giving n% inhibition of infection, replication or growth. Neighbouring rows are from separate reports. MIC50, MIC90 and the like: level of inhibition, or share of isolates inhibited. Percent inhibition refers to the dose given; in toxicity tests it is the harm to the cells. An empty or dashed field is not shown.

structure	strain	read by	measure	tested at	value
CCc1cc(C(N)=S)ccn1	56 strains	agar	EC50	-	<5 µg/mL
CC[C@H]1OC(=O)[C@H](C)[C@@H](O[C@H]2C[C@@](C)(OC)[C@@H](O)[C@H](C)O2)[C@H](C)[C@@H](O[C@@H]2O[C@H](C)C[C@H](N(C)C)[C@H]2O)[C@](C)(OC)C[C@@H](C)C(=O)[C@H](C)[C@@H](O)[C@]1(C)O	N-251 (HIV-)	-	MIC	-	8 µg/mL
CCN=c1cc2n(-c3ccc(Cl)cc3)c3ccccc3nc-2cc1Nc1ccc(Cl)cc1	1625	-	MBC	-	2 µg/mL
CCCCNNC(=O)O[C@H]1[C@H](O[C@@H]2[C@@H](C)[C@H](O[C@H]3C[C@@](C)(OC)[C@@H](OC(C)=O)[C@H](C)O3)[C@@H](C)C(=O)O[C@H](CC)[C@@](C)(O)[C@H](O)[C@@H](C)/C(=N/OCCCC3CCCCC3)[C@H](C)CC2(C)O)O[C@H](C)C[C@@H]1N(C)C	20096 (clarithromycin-resistant)	-	MIC	-	0.78 µg/mL
N[C@@H]1CONC1=O	97 strains	agar	inhibition	30 µg/mL	40%
C[C@@H]1CN(c2c(F)c(N)c3c(=O)c(C(=O)O)cn(C4CC4)c3c2F)C[C@H](C)N1	Isolate 90-0731	-	MBC	-	2 µg/mL
Clc1ccc(Nc2cc3nc4ccccc4n(-c4ccc(Cl)cc4)c-3cc2=NCCCN2CCCC2)cc1	10 strains (HIV+)	-	MIC90	-	0.83 µg/mL
CC1(C)N=C(N)N=C(N)N1OCCCOc1cc(Cl)c(Cl)cc1Cl	DW1	-	MIC	-	1 µg/mL
CCCC(=O)O[C@H]1[C@H](C)[C@@H](O[C@@H]2O[C@H](C)C[C@H](N(C)C)[C@H]2O)C(C)(O)C[C@@H](C)/C(=N\OCCCOc2ccccc2)[C@H](C)[C@@H](O)[C@](C)(O)[C@@H](CC)OC(=O)[C@@H]1C	20092 (clarithromycin-resistant)	-	MIC	-	12.5 µg/mL
CO[C@H]1/C=C/O[C@@]2(C)Oc3c(C)c(O)c4c(O)c(c5c(c4c3C2=O)NC2(CCN(CC(C)C)CC2)N=5)=NC(=O)/C(C)=C\C=C\[C@H](C)[C@H](O)[C@@H](C)[C@@H](O)[C@@H](C)[C@H](OC(C)=O)[C@@H]1C	N-962 (HIV+)	-	MIC	-	0.1 µg/mL
CC[C@H]1OC(=O)[C@H](C)[C@@H](O[C@H]2C[C@@](C)(OC)[C@@H](OC(C)=O)[C@H](C)O2)[C@H](C)[C@@H](O[C@@H]2O[C@H](C)C[C@H](N(C)C)[C@H]2OC(=O)NNCc2cccc([N+](=O)[O-])c2)C(C)(O)C[C@@H](C)/C(=N\OCCCC2CCCCC2)[C@H](C)[C@@H](O)[C@]1(C)O	20096 (clarithromycin-resistant)	-	MIC	-	0.78 µg/mL
Nc1ccc(S(=O)(=O)c2ccc(N)cc2)cc1	DW26	-	MIC	-	32 µg/mL
CCCCCCCCCCCCC(=O)O[C@H]1[C@H](C)[C@@H](O[C@@H]2O[C@H](C)C[C@H](N(C)C)[C@H]2O)C(C)(O)C[C@@H](C)/C(=N\OCCCOc2ccccc2)[C@H](C)[C@@H](O)[C@](C)(O)[C@@H](CC)OC(=O)[C@@H]1C	20096 (clarithromycin-resistant)	-	MIC	-	>50 µg/mL
CO[C@H]1/C=C/O[C@@]2(C)Oc3c(C)c(O)c4c(=O)c(c5oc6cc(N7CCN(CC(C)C)CC7)cc(=O)c6nc5c4c3=C2O)NC(=O)/C(C)=C\C=C\[C@H](C)[C@H](O)[C@@H](C)[C@@H](O)[C@@H](C)[C@H](OC(C)=O)[C@@H]1C	N-316 (HIV-)	-	MIC	-	0.0313 µg/mL
CCC(=O)O[C@H]1[C@H](C)[C@@H](O[C@@H]2O[C@H](C)C[C@H](N(C)C)[C@H]2O)C(C)(O)C[C@@H](C)/C(=N\OCCCOc2ccccc2)[C@H](C)[C@@H](O)[C@](C)(O)[C@@H](CC)OC(=O)[C@@H]1C	20092 (clarithromycin-resistant)	-	MIC	-	25 µg/mL
C[C@@H]1CN(c2c(F)c(N)c3c(=O)c(C(=O)O)cn(C4CC4)c3c2F)C[C@H](C)N1	N-980 (HIV+)	-	MIC	-	0.5 µg/mL
CC[C@H]1OC(=O)[C@H](C)[C@@H](OC2C[C@@](C)(OC)[C@@H](O)[C@H](C)O2)[C@H](C)[C@@H](O[C@@H]2O[C@H](C)C[C@H](N(C)C)[C@H]2O)C(C)(O)C[C@@H](C)/C(=N\OCCC2CCCCC2)[C@H](C)[C@@H](O)[C@]1(C)O	20096 (clarithromycin-resistant)	-	MIC	-	50 µg/mL
CC1(C)N=C(N)N=C(N)N1OCCCOc1cc(Cl)c(Cl)cc1Cl	1753	-	MIC	-	2 µg/mL

The first 2 rows once more:

structure	strain	read by	measure	tested at	value
CCc1cc(C(N)=S)ccn1	56 strains	agar	EC50	-	<5 µg/mL
CC[C@H]1OC(=O)[C@H](C)[C@@H](O[C@H]2C[C@@](C)(OC)[C@@H](O)[C@H](C)O2)[C@H](C)[C@@H](O[C@@H]2O[C@H](C)C[C@H](N(C)C)[C@H]2O)[C@](C)(OC)C[C@@H](C)C(=O)[C@H](C)[C@@H](O)[C@]1(C)O	N-251 (HIV-)	-	MIC	-	8 µg/mL